This is an account of results in patent US20190390248.

In data set [1] the target is human prothrombin, P00734.
For data set [2], the target named is descarboxyprothrombin, P00734.
In data set [3] the target is T1, purified human fibrinogen, P02671.
T1 chain 1: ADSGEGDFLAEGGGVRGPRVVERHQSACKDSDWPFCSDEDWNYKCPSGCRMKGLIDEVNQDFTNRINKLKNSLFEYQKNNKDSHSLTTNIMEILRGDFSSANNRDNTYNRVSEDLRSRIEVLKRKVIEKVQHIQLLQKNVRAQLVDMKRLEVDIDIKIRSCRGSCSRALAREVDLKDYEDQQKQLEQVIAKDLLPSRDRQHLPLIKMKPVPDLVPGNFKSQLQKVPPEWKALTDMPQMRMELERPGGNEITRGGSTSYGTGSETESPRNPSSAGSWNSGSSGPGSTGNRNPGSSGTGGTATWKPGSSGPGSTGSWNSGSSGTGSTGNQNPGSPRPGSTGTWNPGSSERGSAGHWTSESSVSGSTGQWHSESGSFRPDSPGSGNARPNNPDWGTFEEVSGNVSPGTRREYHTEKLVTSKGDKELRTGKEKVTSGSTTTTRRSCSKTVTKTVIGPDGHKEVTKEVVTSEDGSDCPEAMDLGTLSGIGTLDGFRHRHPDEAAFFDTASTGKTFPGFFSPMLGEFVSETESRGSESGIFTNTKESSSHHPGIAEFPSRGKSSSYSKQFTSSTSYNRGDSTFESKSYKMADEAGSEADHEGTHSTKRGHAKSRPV
T1 chain 2: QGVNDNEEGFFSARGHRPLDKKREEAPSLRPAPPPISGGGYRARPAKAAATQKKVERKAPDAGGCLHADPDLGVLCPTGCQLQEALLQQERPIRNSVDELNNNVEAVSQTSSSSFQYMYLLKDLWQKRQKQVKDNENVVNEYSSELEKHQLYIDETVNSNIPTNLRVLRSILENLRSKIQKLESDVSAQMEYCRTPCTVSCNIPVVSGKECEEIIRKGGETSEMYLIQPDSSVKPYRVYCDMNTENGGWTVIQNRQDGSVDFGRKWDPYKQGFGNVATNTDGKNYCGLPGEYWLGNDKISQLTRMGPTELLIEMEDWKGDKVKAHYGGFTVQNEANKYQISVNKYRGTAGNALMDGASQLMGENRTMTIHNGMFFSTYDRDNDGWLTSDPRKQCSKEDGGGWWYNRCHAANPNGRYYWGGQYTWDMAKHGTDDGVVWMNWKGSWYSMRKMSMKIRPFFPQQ
T1 chain 3: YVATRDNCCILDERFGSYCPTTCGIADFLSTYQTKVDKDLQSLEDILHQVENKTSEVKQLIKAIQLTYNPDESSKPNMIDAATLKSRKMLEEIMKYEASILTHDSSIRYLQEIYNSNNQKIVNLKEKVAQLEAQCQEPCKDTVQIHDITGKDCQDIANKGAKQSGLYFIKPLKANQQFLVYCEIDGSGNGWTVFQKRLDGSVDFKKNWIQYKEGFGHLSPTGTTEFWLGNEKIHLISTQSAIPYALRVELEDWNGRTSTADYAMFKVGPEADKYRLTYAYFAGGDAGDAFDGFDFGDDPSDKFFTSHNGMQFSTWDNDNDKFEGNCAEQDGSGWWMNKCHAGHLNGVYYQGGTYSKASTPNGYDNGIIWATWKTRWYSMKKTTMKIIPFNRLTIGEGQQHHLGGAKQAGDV

B1: PtPA (prothrombin activator purified from Pseudonaja textilis venom) (protein)
chain 1: AQLREYHIAAQLEDWDYNPQPEELSRLSESDLTFKKIVYREYELDFKQEKPRDELSGLLGPTLRGEVGDILIIYFKNFATQPVSIHPQSAVYNKWSEGSSYSDGTSDVERLDDAVPPGQSFKYVWNITAEIGPKKADPPCLTYAYYSHVNMVRDFNSGLIGALLICKEGSLNANGSQKFFNREYVLMFSVFDESKNWYRKPSLQYTINGFANGTLPDVQACAYDHISWHLIGMSSSPEIFSVHFNGQTLEQNHYKVSTINLVGGASVTANMSVSRTGKWLISSLVAKHLQAGMYGYLNIKDCGNPDTLTRKLSFRELRRIMNWEYFIAAEEITWDYAPEIPSSVDRRYKAQYLDNFSNFIGKKYKKAVFRQYKDSNFTKPTYAIWPKERGILGPVIRAKVRDTISIVFKNLASRPYSIYVHGVSVSKDAEGAIYPSDPKENITHGKAVEPGQVYTYKWTVLDTDEPTVKDSECITKLYHSAVDMTRDIASGLIGPLLVCKHKALSVKGVQNKADVEQHAVFAVFDENKSWYLEDNIKKYCSNPSTVKKDDPKFYKSNVMYTLNGYASDRTEVLGFHQSEVVEWHLTSVGTVDEIVPVHLSGHTFLSKGKHQDILNLFPMSGESATVTMDNLGTWLLSSWGSCEMSNGMRLRFLDANYDDEDEGNEEEEEDDGDIFADIFIPPEVVKKKEKDPVNFVSDPESDKIAKELGLLDDEDNQEESHNVQTEDDEEQLMIATMLGFRSFKGSVAEEELNLTALALEEDAHASDPRIDSNSARNPDDIAGRYLRTINRGNKRRYYIAAEEVLWDYSPIGKSQVRSRAAKTTFKKAIFRSYLDDTFQTPSTGGEYEKHLGILGPIIRAEVDDVIEVQFRNLASRPYSLHAHGLLYEKSSEGRSYDDKSPELFKKDDAIMPNGTYTYVWQVPPRSGPTDNTEKCKSWAYYSGVNPEKDIHSGLIGPILICQKGMIDKYNRTIDIREFVLFFMVFDEEKSWYFPKSDKSTRAEKLIGVQSRHTFPAINGIPYQLQGLTMYKDENVHWHLLNMGGPKDIHVVNFHGQTFTEEGREDNQLGVLPLLPGTFASIKMKPSKIGTWLLETEVGENQERGMQALFTVIDKDCKLPMGLASGIIQDSQISASGHVGYWEPKLARLNNTGKYNAWSIIKKEHEHPWIQIDLQRQVVITGIQTQGAMQLLKHLYTVEYFFTYSKDGQNWITFKGRHSETQMHFEGNSDGTTVKENHIDPPIIARYIRLHPTKFHNRPTFRIELLGCEVEGCSVPLGMESGAIKNSEITASSYKKTWWSSWEPSLARLNLKGRTNAWQPKVNNKDQWLQIDLQHLTKITSIITQGATSMTTSMYVKTFSIHYTDDNSTWKPYLDVRTSMEKVFTGNINSDGHVKHFFKPPILSRFIRIIPKTWNQYIALRIELFGCEVF
chain 2: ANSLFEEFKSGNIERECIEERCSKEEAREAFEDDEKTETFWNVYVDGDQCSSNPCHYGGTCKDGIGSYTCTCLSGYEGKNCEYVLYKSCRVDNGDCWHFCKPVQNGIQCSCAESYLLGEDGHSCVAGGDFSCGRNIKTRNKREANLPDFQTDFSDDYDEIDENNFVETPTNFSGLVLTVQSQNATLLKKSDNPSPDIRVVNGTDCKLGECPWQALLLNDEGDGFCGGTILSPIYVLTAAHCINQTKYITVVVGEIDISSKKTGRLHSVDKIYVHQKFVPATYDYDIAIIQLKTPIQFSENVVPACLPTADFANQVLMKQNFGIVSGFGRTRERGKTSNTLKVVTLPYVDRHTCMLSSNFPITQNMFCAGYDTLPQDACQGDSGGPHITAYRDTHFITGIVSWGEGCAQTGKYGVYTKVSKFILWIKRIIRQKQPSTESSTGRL
With B1, in data set [1], the Clotting time, Factor V-deficient plasma sample (vi), 54 nM PtPA came to 12.8 s; the Clotting time, Factor X-deficient plasma sample (v), 54 nM PtPA was found to be 16.5 s; the Clotting time, recalcified citrated plasma sample (i), 3.8 nM PtPA is 48.2 s; the Clotting time, recalcified citrated plasma sample (i), 7.3 nM PtPA came to 34.6 s. In data set [1], the Clotting time, recalcified citrated plasma sample (i), 16 nM PtPA was 22.5 s; the Clotting time, recalcified citrated plasma sample (i), 26 nM PtPA was 16.4 s; the Clotting time, recalcified citrated plasma sample (i), 54 nM PtPA is 12.8 s; the “fold more effective than carinactivase-1 (activation rate constants)” value is on record as “more than 200 times then carinactivase-1”. Further, in data set [1], the “fold more effective than carinactivase-2 (activation rate constants)” value was “more than 20 times more effective than ecarin and carinactivase-2”; the “fold more effective than ecarin (activation rate constants)” value was “more than 20 times more effective than ecarin and carinactivase-2”; the “fold more effective than notecarin (activation rate constants)” value is “approximately 1000 times more effective than notecarin”. The Thrombin generation rate in data set [1] (scale: nmol thrombin/mL/min/µmol prothrombin/µmol activator) was found to be 40.3. Further, in data set [2], the Clotting time, Al(OH)3-adsorbed warfarin plasma sample (iv), 3.8 nM PtPA was 59.8 s; the Clotting time, Al(OH)3-adsorbed warfarin plasma sample (iv), 7.3 nM PtPA was found to be 42.3 s; the Clotting time, Al(OH)3-adsorbed warfarin plasma sample (iv), 16 nM PtPA stood at 28.6 s; the Clotting time, Al(OH)3-adsorbed warfarin plasma sample (iv), 26 nM PtPA worked out at 26.8 s. In data set [2], this protein yielded a Clotting time, Al(OH)3-adsorbed warfarin plasma sample (iv), 54 nM PtPA of 18.4 s; a Clotting time, warfarin plasma sample (iii), 3.8 nM PtPA of 55 s; a Clotting time, warfarin plasma sample (iii), 7.3 nM PtPA of 38.8 s; a Clotting time, warfarin plasma sample (iii), 16 nM PtPA of 24.6 s. Moreover, in data set [2], the Clotting time, warfarin plasma sample (iii), 26 nM PtPA was 18.4 s and the Clotting time, warfarin plasma sample (iii), 54 nM PtPA is 15.6 s. The protein further displayed a Clotting time, purified human fibrinogen sample (vii), 54 nM PtPA in data set [3] of over 180 s.
